Measured values from several laboratories, pooled; numbers as filed in NIAID ChemDB.

Shared fields: tests in culture; agent: HIV-1; cells: MT-4; measure: inhibition

Percent inhibition refers to the dose given; in toxicity tests it is the harm to the cells. Lines come from different laboratories, so protocols vary. Two numbers with a dash give a range or band. An empty or dashed field is not shown.

SMILES | strain or isolate | changes | method | conditions | dose | result
Cc1cn([C@@H]2CC=C[C@@H](CO)O2)c(=O)[nH]c1=O | IIIB | - | ELISA | - | 100 µM | 0%
Nc1ccn([C@@H]2CS[C@H](CO)O2)c(=O)n1 | BRU | - | syncytia | - | 0.1 µM | 100%
Cc1cccc2sc(NC(=O)NCCc3ccccc3)nc12 | - | - | cytopathic effect / XTT | - | 10 µg/mL | 28%
CC(C)c1cc(=O)oc2c(C3C=NNC(SCc4ccccc4)=N3)c(O)c3c(c12)OC(C)(C)C=C3 | 899A | - | RT activity / visual reading | - | 50 µM | 32%
C[C@H]1O[C@H](O[C@@]23C(=O)[C@@H](O)[C@](C)(O)C[C@]2(O)C=CC2=C3C(=O)c3cccc(O)c3C2=O)CC[C@H]1O | LAV | - | plaque count | - | 0.1 µg/mL | 20%
Nc1ccn([C@H]2C=C(CO)[C@@H](CO)S2)c(=O)n1 | - | - | - | - | 100 µg/mL | 0%
N#Cc1cc(Cl)cc(Oc2c(Cl)ccc3c2nnn3Cc2[nH]nc3ncccc23)c1 | - | - | - | - | 0.0043 µM | >95%
O=c1[nH]c(=O)n([C@H]2C[C@H](CO)[C@@H](CO)S2)cc1F | - | - | - | - | 100 µg/mL | 0%
O=C(NCCc1ccccc1)Nc1ccccc1 | - | - | cytopathic effect / XTT | - | 10 µg/mL | 25%
N[C@@H](CCC(=O)O)C(=O)N[C@@H](Cc1c[nH]c2ccccc12)C(=O)O | - | - | p24 | - | 50 µg/mL | 100%
CNC(=O)c1cn2c(c1O)C(=O)N(Cc1ccc(Cl)cc1)CC2 | IIIB | - | p24 / ELISA | - | 2.5 µM | >95%
Cc1cn([C@H]2C[C@H](N=[N+]=[N-])[C@@H](CCO)O2)c(=O)[nH]c1=O | IIIB | - | cytopathic effect / trypan blue | - | 200 µg/mL | 0%
CC(=O)Nc1ccn([C@H]2CS[C@@H](CO)O2)c(=O)n1 | BRU | - | syncytia | - | 100 µM | 100%
CC(C)c1cc(=O)oc2c(C3C=NNC(Sc4ccccc4)=N3)c(O)c3c(c12)OC(C)(C)C=C3 | 899A | - | RT activity / visual reading | - | 50 µM | 23%
CCOC(=O)c1cn2c(c1O)C(=O)N(Cc1cccc(Cl)c1)CC2 | IIIB | - | p24 / ELISA | - | 1.25 µM | >95%
O=C1c2c(O)c(O)cc(=O)n2CCN1Cc1ccc(F)c(Cl)c1 | - | - | p24 / ELISA | - | 0.25 µM | ≥95%
CC(=O)N(C)c1nc(C(=O)NCc2ccc(F)cc2)c(O)c2ncccc12 | - | - | p24 | 10% FBS | 0.125 µM | >95%
Cc1cn([C@H]2C=C[C@@H](COC(=O)[C@H](Cc3c[nH]c4ccccc34)NC(=O)[C@@H](N)CCC(=O)O)O2)c(=O)[nH]c1=O | - | - | p24 | - | 0.7 µg/mL | 100%
CCOC(=O)c1cn2c(c1O)C(=O)N(Cc1ccccc1)CC2 | IIIB | - | p24 / ELISA | - | 20 µM | >95%
O=C1c2c(O)c(O)cc(=O)n2CCN1Cc1ccccc1 | - | - | p24 / ELISA | - | 2.5 µM | ≥95%
Cc1cn([C@H]2CC=C[C@@H](CO)O2)c(=O)[nH]c1=O | IIIB | - | ELISA | - | 100 µM | 0%
CC1(C)[C@@H](O[C@H]2O[C@H](C(=O)O)[C@@H](O)[C@H](O)[C@H]2O[C@@H]2O[C@H](C(=O)O)[C@@H](O)[C@H](O)[C@H]2O)CC[C@]2(C)[C@H]3C(=O)C=C4[C@@H]5C[C@@](C)(C(=O)O)CC[C@]5(C)CC[C@@]4(C)[C@]3(C)CC[C@@H]12 | IIIB | - | cytopathic effect | - | 6 µM | 33%
O=c1[nH]cnc2c1ncn2[C@H]1C[C@@H](CO)O1 | - | - | antigen | - | 3 µg/mL | >99.9%
Cc1cn([C@H]2C=C(CO)[C@@H](CO)S2)c(=O)[nH]c1=O | - | - | - | - | 100 µg/mL | 0%
Nc1ncnc2c1ncn2[C@H]1C[C@@H](CO)O1 | - | - | antigen | - | 3 µg/mL | 99.9%
CC(C)CN(C[C@@H](O)[C@H](Cc1ccccc1)NC(=O)O[C@H]1CO[C@H]2OCC[C@H]21)S(=O)(=O)c1ccc2nc(NC3CCN(C4CCCC4)CC3)sc2c1 | LAI | - | reporter gene | - | 94.7 nM | 90%
O=c1[nH]c(=O)c2ncn([C@@H]3O[C@H](CO)[C@H]3CO)c2[nH]1 | IIIB | - | RT activity / antigen | - | 100 µg/mL | 8%
O=C(NCCc1ccccc1)Nc1nc2ccc(F)cc2s1 | - | - | cytopathic effect / XTT | - | 100 µg/mL | 72–100%
COc1ccc(-c2cc3oc(=O)cc(C(C)C)c3c3c2C=CC(C)(C)O3)cc1 | 899A | - | RT activity / visual reading | - | 50 µM | 25%
O=C1c2c(O)c3n(c2CCN1Cc1ccc(F)cc1)CCN(Cc1ccc(F)cc1)C3=O | IIIB | - | p24 / ELISA | - | 0.07 µM | >95%
CC(=O)N[C@H]1CSSC[C@@H](C(=O)N[C@@H](CCC(N)=O)C(=O)O)NC(=O)[C@H](Cc2cnc[nH]2)NC(=O)[C@H](Cc2ccc(O)cc2)NC1=O | NL4-3 | - | RT activity | 6 d | 2.5 µM | 63%
Nc1ncnc2c1ncn2[C@@H]1O[C@H](CO)[C@H]1N | - | - | antigen | - | 100 µg/mL | >99.9%
O=C(NCCc1ccccc1)Nc1nc(C(F)(F)F)cs1 | - | - | RT activity | - | 0.1 µg/mL | 98%
N#Cc1cc(Cl)cc(Oc2cc(OCc3[nH]nc4ncccc34)ccc2Cl)c1 | - | Y181C | - | - | 0.022 µM | >95%
Cc1cn([C@H]2C[C@H](N=[N+]=[N-])[C@@H](CO)O2)c(=O)[nH]c1=O | NL4-3 | - | RT activity | 6 d | 1 µM | 100%
Nc1ccn([C@H]2CC=C[C@@H](CO)O2)c(=O)n1 | IIIB | - | ELISA | - | 100 µM | 0%
[N-]=[N+]=NC[C@H]1[C@H](n2cnc3c(N)ncnc32)O[C@@H]1CO | - | - | antigen | - | 10 µg/mL | 90%
O=c1ccn([C@@H]2CC=C[C@@H](CO)O2)c(=O)[nH]1 | IIIB | - | ELISA | - | 100 µM | 0%
CCCCC(=O)OC[C@H]1O[C@@H](n2cnc3c(N)ncnc32)[C@@H]1CO | - | - | antigen | - | 100 µg/mL | 99.9%
N#Cc1cc(Cl)cc(Oc2c(Cl)ccc3c2cnn3Cc2[nH]nc3ncccc23)c1 | - | Y181C | - | - | 0.058 µM | >95%
S=C(NCCc1ccccc1)N1CCCCC1 | - | - | cytopathic effect / XTT | - | 10 µg/mL | 0%
CCc1c(Sc2ccccc2)n(COCc2ccccc2)c(=O)[nH]c1=O | A018C | - | p24 | - | 0.028 µM | 90%
O=C(NCCc1ccccc1)Nc1nc2c(Cl)cccc2s1 | - | - | cytopathic effect / XTT | - | 100 µg/mL | 100%
CC(=O)OC[C@H]1O[C@@H](n2ccc(N)nc2=O)CS1 | BRU | - | syncytia | - | 10 µM | 100%

The first 6 rows once more:

Cc1cn([C@@H]2CC=C[C@@H](CO)O2)c(=O)[nH]c1=O ; strain or isolate: IIIB ; method: ELISA ; dose: 100 µM ; result: 0%
Nc1ccn([C@@H]2CS[C@H](CO)O2)c(=O)n1 ; strain or isolate: BRU ; method: syncytia ; dose: 0.1 µM ; result: 100%
Cc1cccc2sc(NC(=O)NCCc3ccccc3)nc12 ; method: cytopathic effect / XTT ; dose: 10 µg/mL ; result: 28%
CC(C)c1cc(=O)oc2c(C3C=NNC(SCc4ccccc4)=N3)c(O)c3c(c12)OC(C)(C)C=C3 ; strain or isolate: 899A ; method: RT activity / visual reading ; dose: 50 µM ; result: 32%
C[C@H]1O[C@H](O[C@@]23C(=O)[C@@H](O)[C@](C)(O)C[C@]2(O)C=CC2=C3C(=O)c3cccc(O)c3C2=O)CC[C@H]1O ; strain or isolate: LAV ; method: plaque count ; dose: 0.1 µg/mL ; result: 20%
Nc1ccn([C@H]2C=C(CO)[C@@H](CO)S2)c(=O)n1 ; dose: 100 µg/mL ; result: 0%